Patent US10428060B2, “PI-kinase inhibitors with anti-infective activity” (The Board of Trustees of the Leland Stanford Junior …, priority 2011, dated 2019)

Tested on: Ebola
Assay: microbe, parasite or virus in culture
Format: cell-based
Conditions: Zaire ebolavirus, read-out: Ebola EC50

Compound: COc1ccc(-c2sc(NC(=O)CC3CCOCC3)nc2C)cc1S(=O)(=O)Nc1ccccc1C [Compound S-228, N-[5-[4-methoxy-3-(o-tolylsulfamoyl)phenyl]-4-methyl-thiazol-2-yl]-2-tetrahydropyran-4-yl-acetamide]
- EC50: 1 to 10 µM
